{"source": "PubChem BioAssay AID1259414 (Drosophila RNAi Screening Center, 2018)", "test": "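Genome-wide screen for host control of endosymbiont load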 (primary screen)", "cells": "Drosophila JW18 cells infected with Wolbachia", "reagents": "long dsRNA against Drosophila genes, 0.25 µg dsRNA per well of a 384-well plate", "time to read-out": "5 days", "challenge": "cells persistently infected with Wolbachia before knock-down; no added drug", "detection": "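Imaged fluorescence in situ signal for Wolbachia 23S rRNA per DAPI-counted host cell, given as a robust z-score within each plate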", "direction": "Wolbachia per cell robust z: higher = more Wolbachia per host cell than the plate typical", "hit rule": "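Hit when robust z is 1.5 or more, or -1.5 or less, in at least two of three replicates; excludes dsRNAs with several or no targets, genes not expressed in JW18 and well A1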", "note": "The deposit covers about 24,000 reagents; below is an unselected part of those with a known target gene and a result. Of all reagents, about 1,210 (5%) are marked active. 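Inactive calls also include excluded dsRNAs with several or no targets, genes unexpressed in JW18, and well A1, regardless of score.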"}
{"gene knocked down": "grnd", "amplicon": "DRSC02020", "Wolbachia per cell robust z, rep 1": -0.315, "Wolbachia per cell robust z, rep 2": 0.755, "Wolbachia per cell robust z, rep 3": 1.75, "outcome": "inactive"}
{"gene knocked down": "ppk9", "amplicon": "DRSC04134", "Wolbachia per cell robust z, rep 1": -3.04, "Wolbachia per cell robust z, rep 2": -0.277, "Wolbachia per cell robust z, rep 3": -0.00939, "outcome": "inactive"}
{"gene knocked down": "ppk9", "amplicon": "DRSC04135", "Wolbachia per cell robust z, rep 1": -0.452, "Wolbachia per cell robust z, rep 2": -0.316, "Wolbachia per cell robust z, rep 3": 0.0424, "outcome": "inactive"}
{"gene knocked down": "CG3494", "amplicon": "DRSC04375", "Wolbachia per cell robust z, rep 1": -1.27, "Wolbachia per cell robust z, rep 2": 0.212, "Wolbachia per cell robust z, rep 3": 0.507, "outcome": "inactive"}
{"gene knocked down": "CG34325", "amplicon": "DRSC19802", "Wolbachia per cell robust z, rep 1": -1.55, "Wolbachia per cell robust z, rep 2": -2.73, "Wolbachia per cell robust z, rep 3": -0.674, "outcome": "inactive"}
{"gene knocked down": "CG34325", "amplicon": "DRSC20200", "Wolbachia per cell robust z, rep 1": -0.746, "Wolbachia per cell robust z, rep 2": -0.127, "Wolbachia per cell robust z, rep 3": -3.07, "outcome": "inactive"}
{"gene knocked down": "mRpS18A", "amplicon": "DRSC14369", "Wolbachia per cell robust z, rep 1": -0.86, "Wolbachia per cell robust z, rep 2": -0.538, "Wolbachia per cell robust z, rep 3": -0.262, "outcome": "inactive"}
{"gene knocked down": "CG34194", "amplicon": "DRSC05666", "Wolbachia per cell robust z, rep 1": -1.16, "Wolbachia per cell robust z, rep 2": -0.261, "Wolbachia per cell robust z, rep 3": 0.969, "outcome": "inactive"}
{"gene knocked down": "CG34194", "amplicon": "DRSC41336", "Wolbachia per cell robust z, rep 1": 0.582, "Wolbachia per cell robust z, rep 2": 0.781, "Wolbachia per cell robust z, rep 3": 0.861, "outcome": "inactive"}
{"gene knocked down": "faf", "amplicon": "DRSC16942", "Wolbachia per cell robust z, rep 1": -4.2, "Wolbachia per cell robust z, rep 2": 1.03, "Wolbachia per cell robust z, rep 3": -0.527, "outcome": "inactive"}
{"gene knocked down": "tin", "amplicon": "DRSC17083", "Wolbachia per cell robust z, rep 1": -0.313, "Wolbachia per cell robust z, rep 2": 0.485, "Wolbachia per cell robust z, rep 3": -5.16, "outcome": "inactive"}
{"gene knocked down": "tin", "amplicon": "DRSC23248", "Wolbachia per cell robust z, rep 1": 0.292, "Wolbachia per cell robust z, rep 2": 0.243, "Wolbachia per cell robust z, rep 3": -0.244, "outcome": "inactive"}
{"gene knocked down": "tin", "amplicon": "DRSC28260", "Wolbachia per cell robust z, rep 1": -0.028, "Wolbachia per cell robust z, rep 2": -0.277, "Wolbachia per cell robust z, rep 3": 0.635, "outcome": "inactive"}
{"gene knocked down": "CG17717", "amplicon": "DRSC18130", "Wolbachia per cell robust z, rep 1": 0.235, "Wolbachia per cell robust z, rep 2": 0.391, "Wolbachia per cell robust z, rep 3": -0.213, "outcome": "inactive"}
{"gene knocked down": "Cpr76Bd", "amplicon": "DRSC11063", "Wolbachia per cell robust z, rep 1": -0.173, "Wolbachia per cell robust z, rep 2": -2.4, "Wolbachia per cell robust z, rep 3": 0.00626, "outcome": "inactive"}
{"gene knocked down": "Or30a", "amplicon": "DRSC03385", "Wolbachia per cell robust z, rep 1": -1.67, "Wolbachia per cell robust z, rep 2": -0.511, "Wolbachia per cell robust z, rep 3": -2.19, "outcome": "inactive"}
{"gene knocked down": "IKKepsilon", "amplicon": "DRSC03550", "Wolbachia per cell robust z, rep 1": -8.32, "Wolbachia per cell robust z, rep 2": -1.22, "Wolbachia per cell robust z, rep 3": 1.08, "outcome": "inactive"}
{"gene knocked down": "CG5906", "amplicon": "DRSC10557", "Wolbachia per cell robust z, rep 1": 1.07, "Wolbachia per cell robust z, rep 2": 0.315, "Wolbachia per cell robust z, rep 3": 0.217, "outcome": "inactive"}
{"gene knocked down": "tty", "amplicon": "DRSC20588", "Wolbachia per cell robust z, rep 1": 0.46, "Wolbachia per cell robust z, rep 2": 0.872, "Wolbachia per cell robust z, rep 3": -0.825, "outcome": "inactive"}
{"gene knocked down": "tty", "amplicon": "DRSC26868", "Wolbachia per cell robust z, rep 1": -0.972, "Wolbachia per cell robust z, rep 2": -0.55, "Wolbachia per cell robust z, rep 3": 0.404, "outcome": "inactive"}
{"gene knocked down": "CG43737", "amplicon": "DRSC19609", "Wolbachia per cell robust z, rep 1": -1.73, "Wolbachia per cell robust z, rep 2": 1.11, "Wolbachia per cell robust z, rep 3": -1.61, "outcome": "inactive"}
{"gene knocked down": "CG43737", "amplicon": "DRSC19610", "Wolbachia per cell robust z, rep 1": -3.02, "Wolbachia per cell robust z, rep 2": -0.309, "Wolbachia per cell robust z, rep 3": -0.516, "outcome": "inactive"}
{"gene knocked down": "CG43737", "amplicon": "DRSC27659", "Wolbachia per cell robust z, rep 1": 0.602, "Wolbachia per cell robust z, rep 2": -0.67, "Wolbachia per cell robust z, rep 3": -1.47, "outcome": "inactive"}
{"gene knocked down": "CG43737", "amplicon": "DRSC38998", "Wolbachia per cell robust z, rep 1": 0.148, "Wolbachia per cell robust z, rep 2": -0.375, "Wolbachia per cell robust z, rep 3": 0.861, "outcome": "inactive"}
{"gene knocked down": "CG14627", "amplicon": "DRSC18630", "Wolbachia per cell robust z, rep 1": -2.17, "Wolbachia per cell robust z, rep 2": -0.682, "Wolbachia per cell robust z, rep 3": 0.3, "outcome": "inactive"}
{"gene knocked down": "Nepl11", "amplicon": "DRSC12333", "Wolbachia per cell robust z, rep 1": -3.35, "Wolbachia per cell robust z, rep 2": 0.569, "Wolbachia per cell robust z, rep 3": 0.534, "outcome": "inactive"}
{"gene knocked down": "CG1344", "amplicon": "DRSC04837", "Wolbachia per cell robust z, rep 1": 0.419, "Wolbachia per cell robust z, rep 2": -0.367, "Wolbachia per cell robust z, rep 3": 0.72, "outcome": "inactive"}
{"gene knocked down": "MetRS-m", "amplicon": "DRSC16443", "Wolbachia per cell robust z, rep 1": -7.61, "Wolbachia per cell robust z, rep 2": -3.86, "Wolbachia per cell robust z, rep 3": 0.483, "outcome": "active"}
{"gene knocked down": "MetRS-m", "amplicon": "DRSC16515", "Wolbachia per cell robust z, rep 1": 0.587, "Wolbachia per cell robust z, rep 2": -1.48, "Wolbachia per cell robust z, rep 3": -2.81, "outcome": "inactive"}
{"gene knocked down": "CG11251", "amplicon": "DRSC09825", "Wolbachia per cell robust z, rep 1": -0.931, "Wolbachia per cell robust z, rep 2": 0.43, "Wolbachia per cell robust z, rep 3": -0.168, "outcome": "inactive"}
